# Target: HIV-1 JRFL wild-type Env on pseudovirus (HIV-1 (JRFL)) (UniProt Q75760)
substance,measurement,value
Soluble CD4 (from UniProt P01730 26-396) (domain or fragment),"cell-free lysis (p24 release, ELISA) of JRFL pseudovirus by fixed 1,000 nM sCD4 + serial dilutions of Trx1; EC50 of Trx1",135 nM

# — paper PMC11915811, “Conformational activation and disulfide exchange in HIV-1 Env induce cell-free lytic/fusogenic transformation and enhance infection” (Journal of Virology, 2025)
